Results of unrelated studies side by side (data: NIAID ChemDB).

Shared fields: host cell toxicity; measure: CC50

CCn: concentration that lowers growth or viability of the cells by n%. Conditions beyond the fields shown may differ between rows. Blank or dashed fields: not listed here. Two numbers with a dash give a range or band.

| compound | cells | read by | value |
|---|---|---|---|
| CCOCCOC(=O)[C@@]1(C)CC[C@]2(C)CC[C@]3(C)C(=CC(=O)[C@@H]4[C@@]5(C)CC[C@H](O)C(C)(C)[C@@H]5CC[C@]43C)[C@@H]2C1 | HepG2.2.15 |  | 541 µM |
| CCCc1cc(=O)oc2c3c(c4c(c12)OC(C)(C)CC4)O[C@@H](C)[C@H](C)[C@@H]3O | AA5 |  | 10–20 µM |
| COc1ccc(/C=C/C(=O)c2c(O)cc(/C=C/c3ccc(N(C)C)cc3)oc2=O)cc1 | HCT116 | MTT | >10 µM |
| Cc1nc(Cc2ccccc2)c2[nH]c(=S)[nH]c(=O)n12 | PRK |  | 200 µg/mL |
| O=C(NCc1cccs1)c1nn2c(c1Cl)N[C@H](c1ccco1)C[C@@H]2C(F)(F)F | CA32 replicon cells | ATP | >100 µM |
| Clc1ccc([C@@H](CCn2ccnc2)Oc2ccccc2Cl)cc1 | Human histiocytic lymphoma U937 cells |  | 327 µM |
| CCN(C)c1nc(N)nc2c1ncn2[C@H]1C[C@H](O)[C@@H](CO)S1 | MOLT-4 |  | >100 µM |
| COc1ccc(C2C(C(=O)/C=C/c3ccc4c(c3)OCO4)=C(/C=C/c3ccc4c(c3)OCO4)N=C3SC=C(C)N32)cc1 | C1008 (Vero cells) | resazurin | 418 µg/mL |
| CC(C)N(Cc1cccc(OCCCCCC(=O)OC(=O)O)c1)C(=O)c1ccc(-c2ccncc2)cc1 | BJ |  | >20 µM |
| O=C1N/C(=N\S(=O)(=O)c2ccc(Cl)cc2)S/C1=C\c1ccccc1Cl | Huh 5-2 | MTS | >121 µM |
| Nc1nc2c(ncn2[C@@H]2O[C@H](CO)[C@@H](O)[C@@H]2O)c(=O)[nH]1 | CCRF-HSB-2 |  | 2.8 µg/mL |
| C=CCCC1=NCC(OC(C)=O)c2cc(OC)c(OC)cc21 | BJ |  | <7.5 µM |
| COC(=O)C1=CO[C@@H](O)[C@@H]2C(CO)=CC[C@H]12 | SNU719 | WST | 70 µM |
| CC(C)N(Cc1cccc(OCCCCCC(=O)OC(=O)O)c1)C(=O)c1ccc(-c2cccc(Br)c2)cc1 | HepG2 |  | >20 µM |
| CCN(CC)CCCC(C)Nc1ccnc2cc(Cl)ccc12 | RFII/H9 |  | >300 µM |
| C1CNC2(C1)C1CC3CC(C1)CC2C3 | HEF |  | >50 µg/mL |
| CN1C=CN(c2cccc(N3C=CN(C)C3)n2)C1.[Cl][Au].[Cl][Au] | PC-3 | sulforhodamine / absorbance | >30 µM |
| CC1=CSC2=NC(/C=C/c3ccc(Br)cc3)=C(C(=O)/C=C/c3ccc(Br)cc3)C(c3ccccc3)N12 | C1008 | resazurin | 282 µg/mL |
| O=C1N/C(=N\S(=O)(=O)c2ccc(Cl)cc2)S/C1=C\c1cccnc1 | Huh 5-2 | MTS | >132 µM |
| O=C(N/N=C/c1ccc(O)cc1)Nc1cccc2nsnc12 | Cf2Th-CD4/CXCR4 | ATP | 63 µM |
| NCC1CC12C1CC3CC(C1)CC2C3 | HEF |  | 28 µg/mL |
| Nc1nc2c(ncn2[C@H]2CC[C@@H](CO)O2)c(=O)[nH]1 | Primary duck hepatocytes |  | >200 µM |
| CCOc1cccc(-c2ccc(C(=O)N(Cc3cccc(OCCCCCC(=O)OC(=O)O)c3)C(C)C)cc2)c1 | RAJI |  | >20 µM |
| C1CN(CC2CC2)C2(C1)C1CC3CC(C1)CC2C3 | HEF |  | >200 µg/mL |
| N=C(N)c1ccc(-c2cc(-c3ccc(C(=N)N)nc3)no2)cc1 | L6 rat myoblasts | resazurin | 1.76 µM |
| COc1cccc2c1c(=O)c1ccccc1n2C | OM-10.1 |  | 13 µg/mL |
| CCCNc1nc(N)nc2c1ncn2[C@H]1C[C@H](O)[C@@H](CO)S1 | MOLT-4 |  | ~100 µM |
| O=c1cc(OCc2cccc(I)c2)oc2ccc(OCc3cccc(Cl)c3)c(O)c12 | Hs27 | MTT | >50 µM |
| CN1CCCC12C1CC3CC(C1)CC2C3 | HEF |  | >50 µg/mL |
| C=CCc1nc(C)n2c(=O)[nH]c(=S)[nH]c12 | PRK |  | 40 µg/mL |
| Nc1ccn([C@H]2CC[C@@H](CO)O2)c(=O)n1 | RAJI |  | 12 µM |
| CN(C)c1ccc(/C=C/C(=O)c2c(O)cc(/C=C/c3ccc(N(C)C)cc3)oc2=O)cc1 | HCT116 | MTT | >10 µM |
| CC1(C)[C@@H](O)CC[C@]2(C)[C@H]3C(=O)C=C4[C@@H]5C[C@@](C)(C(=O)OCc6ccc(Br)cc6F)CC[C@]5(C)CC[C@@]4(C)[C@]3(C)CC[C@@H]12 | HepG2.2.15 |  | >1430 µM |
| COc1c(C(=O)c2cnc3cc(=O)[nH]c(=O)n3c2)c(O)c(OC)c2occc12 | HCV replicon cells |  | 341 µM |
| Cn1c2ccccc2c(=O)c2c(O)ccc(O)c21 | OM-10.1 |  | 0.36 µg/mL |
| COc1ccc(-c2cn3c(=O)c4ncn([C@H]5CC(N=[N+]=[N-])[C@@H](CO)O5)c4nc3[nH]2)cc1 | PBM |  | 56.7 µM |
| CC(=NNC(=O)c1snnc1C(F)(F)F)c1ccccn1 | MDA-MB-231 | MTT | 2.74 µg/mL |
| O=c1cc(OCc2cccc(Cl)c2)oc2ccc(OCc3cccc(Cl)c3)c(O)c12 | Hs27 | MTT | >50 µM |
| O=C1O[C@H]([C@@H](O)CO)C(O)=C1O | VB |  | >150 µg/mL |
| O=c1cc(OCc2ccc(I)cc2)oc2ccc(OCc3cccc(Cl)c3)c(O)c12 | Hs27 | MTT | >50 µM |
| N#CC(N)=NCCCC[NH+]=C(N)NC(N)=NCCCCN=C(N)NC(N)=[NH+]CCCCN.[Cl-].[Cl-] | P4-CCR5 | MTT | 550 µg/mL |
| COc1ccc(Br)cc1/C=C/C(=O)c1c(O)cc(/C=C/c2ccc(N(C)C)cc2)oc1=O | HCT116 | MTT | >10 µM |
| COc1cccc2[nH]c3ccccc3c(=O)c12 | OM-10.1 |  | 17 µg/mL |
| CC1=CSC2=NC(/C=C/c3ccc(OCc4ccccc4)cc3)=C(C(=O)/C=C/c3ccc(OCc4ccccc4)cc3)C(c3ccc(Cl)cc3)N12 | C1008 (Vero cells) | resazurin | >500 µg/mL |
| CC1(C)[C@@H](O)CC[C@]2(C)[C@H]3C(=O)C=C4[C@@H]5C[C@@](C)(C(=O)OCC6CC6)CC[C@]5(C)CC[C@@]4(C)[C@]3(C)CC[C@@H]12 | HepG2.2.15 |  | 696 µM |
| Cc1cc(O)c(C(=O)/C=C/c2ccc(N(C)C)s2)c(=O)o1 | HCT116 | MTT | >10 µM |
| CCOC(=O)CCCOC(=O)[C@@]1(C)CC[C@]2(C)CC[C@]3(C)C(=CC[C@@H]4[C@@]5(C)CC[C@H](OC(=O)/C=C/c6cc(OC)c(OC)c(OC)c6)C(C)(C)[C@@H]5CC[C@]43C)[C@@H]2C1 | HepG2.2.15 |  | >1230 µM |
| Nc1nc2c(ncn2COCCO)c(=O)[nH]1 | P3HR-1 |  | 250 µM |
| Cn1c2ccccc2c(=O)c2c(O)cccc21 | OM-10.1 |  | 18 µg/mL |
| COc1cccc(-c2ccc(C(=O)N(Cc3cccc(OCCCCCC(=O)OC(=O)O)c3)C(C)C)cc2)c1 | HEK 293 |  | >20 µM |
| Cc1cn([C@@H]2O[C@H](CO)[C@@H](O)[C@@H]2F)c(=O)[nH]c1=O | P3HR-1 |  | 1 µM |
| [O-][n+]1onc2ncnc(N3CC[N+]4(CC3)CC[N+]3(CCN(c5ncnc6no[n+]([O-])c56)CC3)CC4)c21 | GMK |  | >1760 µM |
| O=c1[nH]c(=O)n([C@H]2C[C@H](O)[C@@H](CO)O2)cc1/C=C/Br | P3HR-1 |  | 390 µM |
| COc1ccc(/C=C/C=C/C(=O)c2c(O)cc(C)oc2=O)cc1 | HCT116 | MTT | >10 µM |
| Nc1nc(N)c2cc3c(ccc4ccccc43)nc2n1 | ACHN | MTT | 6.3 µM |
| CCc1nc2sc(C(N)=O)c(N)c2cc1C | CEM-SS | XTT | 190 µM |
| CN(C)c1ccc(-c2cn3c(=O)c4ncn([C@H]5C=C[C@@H](CO)C5)c4nc3[nH]2)cc1 | PBM |  | 24 µM |
| Nc1nc(N)c2cc3c(nc2n1)CCc1ccccc1-3 | HCT116 | MTT | 25 µM |
| COc1cc(/C=C/C(=O)O[C@H]2CC[C@]3(C)[C@H]4CC=C5[C@@H]6C[C@@](C)(C(=O)OCc7ccc(C(F)(F)F)cc7)CC[C@]6(C)CC[C@@]5(C)[C@]4(C)CC[C@H]3C2(C)C)cc(OC)c1OC | HepG2.2.15 |  | >987 µM |
| CCOC(=O)CCCCCOc1cccc(CN(C(=O)c2ccc(-c3cccc(NC=O)c3)cc2)C(C)C)c1 | BJ |  | >20 µM |
| Nc1ccn([C@H]2CC[C@@H](CO)O2)c(=O)n1 | ATH8 |  | >10 µM |
| CC(=O)Nc1nc2c(CC(O)CO)ncn2c(=O)[nH]1 | VERO |  | 200 µg/mL |
| Cc1nc(COC(=O)[C@@]2(C)CC[C@]3(C)CC[C@]4(C)C(=CC(=O)[C@@H]5[C@@]6(C)CC[C@H](O)C(C)(C)[C@@H]6CC[C@]54C)[C@@H]3C2)cs1 | HepG2.2.15 |  | 37.17 µM |
| C/C1=C\[C@H](O)C[C@@](C)(O)/C=C/[C@H](C(C)C)CC/C(C)=C/CCC1 | Astrocytes | MTT | >100 µM |
| CC1=CSC2=NC(/C=C/c3cccc(Cl)c3)=C(C(=O)/C=C/c3cccc(Cl)c3)C(c3ccccc3)N12 | C1008 (Vero cells) | resazurin | 286 µg/mL |

For reference, 4 entries again:

compound	cells	read by	value
O=C(NCc1cccs1)c1nn2c(c1Cl)N[C@H](c1ccco1)C[C@@H]2C(F)(F)F	CA32 replicon cells	ATP	>100 µM
COc1ccc(Br)cc1/C=C/C(=O)c1c(O)cc(/C=C/c2ccc(N(C)C)cc2)oc1=O	HCT116	MTT	>10 µM
CC1=CSC2=NC(/C=C/c3ccc(Br)cc3)=C(C(=O)/C=C/c3ccc(Br)cc3)C(c3ccccc3)N12	C1008	resazurin	282 µg/mL
COc1ccc(/C=C/C=C/C(=O)c2c(O)cc(C)oc2=O)cc1	HCT116	MTT	>10 µM